Like-named read-outs stand apart in the source and are kept apart here.
Legend:
[1] = molecular target: rat brain membrane K channels (delayed rectifier, primarily Kv1.2) (rat) (UniProt P63142)
[2] = molecular target: rat brain membrane K channels (delayed rectifier, primarily Kv1.2) (rat) (UniProt P63142); assay: 125I-DTX displacement, rat brain membranes
[3] = molecular target: rat brain membrane K channels (delayed rectifier, primarily Kv1.2) (rat) (UniProt P63142); remark: listed apart in the source
[4] = molecular target: rat brain membrane K channels (delayed rectifier, primarily Kv1.2) (rat) (UniProt P63142); remark: listed apart in the source
[5] = molecular target: Kv1.3 potassium channel of human T lymphocytes (human) (UniProt P22001)
[6] = molecular target: rat brain membrane K channels (delayed rectifier, primarily Kv1.2) (rat) (UniProt P63142); remark: listed apart in the source
[7] = molecular target: rat brain membrane K channels (delayed rectifier, primarily Kv1.2) (rat) (UniProt P63142); remark: listed apart in the source
[8] = molecular target: Kv1.3 potassium channel of human T lymphocytes (human) (UniProt P22001); assay: 125I-ChTX displacement, Jurkat T lymphocytes
[9] = molecular target: cloned Kv1.3 channel, wild type
[10] = molecular target: rat brain membrane K channels (delayed rectifier, primarily Kv1.2) (rat) (UniProt P63142); remark: listed apart in the source

Substance	IC50 ratio (analog IC50/ShK IC50) [2]	free energy difference of binding [2] [kcal/mol]	IC50 [4] [nM]	other results
ShK A4 + A15 (peptide)	0.5	-0.41		IC50 ratio (analog IC50/ShK IC50) [1]: 0.5; free energy difference of binding [1]: -0.41 kcal/mol
ShK A4 + A15 + A25 (peptide)	0.2	-0.94		IC50 ratio (analog IC50/ShK IC50) [1]: 0.2; free energy difference of binding [1]: -0.94 kcal/mol
ShK F15A (peptide)	0.6	-0.3	6	IC50 ratio (analog IC50/ShK IC50) [3]: 0.85; free energy difference of binding [3]: -0.09 kcal/mol; equipotent molar ratio (analog IC50/ShK IC50) for block of Kv1.3 current [5]: 0.85
ShK F15W (peptide)	1		6	IC50 ratio (analog IC50/ShK IC50) [3]: 0.8; free energy difference of binding [3]: -0.13 kcal/mol; equipotent molar ratio (analog IC50/ShK IC50) for block of Kv1.3 current [5]: 0.8
ShK I4A (peptide)	0.7	-0.2		
ShK K18A (peptide)	0.8	-0.13	10	
ShK K18E (analog 103) (peptide)				IC50 ratio (analog IC50/ShK IC50) [6]: 4.64
ShK K22A (peptide)	> 250	> 3.23	300	IC50 ratio (analog IC50/ShK IC50) [7]: > 250; free energy difference of binding [7]: > 3.23 kcal/mol; IC50 [8]: > 5 nM; Kd [9]: 0.33 nM; equipotent molar ratio (analog IC50/ShK IC50) for block of Kv1.3 current [5]: 2.3
ShK M21A (peptide)	0.6	-0.3		
ShK R24E (analog 102) (peptide)				IC50 ratio (analog IC50/ShK IC50) [6]: 2.65
ShK R29A (peptide)	0.8	-0.13		
ShK S2A (peptide)	0.5	-0.41		
ShK T6A (peptide)	0.8	-0.13		
ShK T31A (peptide)	0.6	-0.3		
ShK Y23F (peptide)	0.8		9	IC50 ratio (analog IC50/ShK IC50) [10]: 1.1; free energy difference of binding [10]: 0.09 kcal/mol; Kd [9]: 0.22 nM
ShK analog 101, triple mutant Nle21, Dat22, A23 (peptide)				IC50 ratio (analog IC50/ShK IC50) [6]: > 280

From patent publication US6077680A (dated 2000)
